Compound potency records, mixed from different reports. Data source: NIAID ChemDB in PubChem.

Common to all: whole-cell or culture tests; species: HIV-1

Rows are shuffled and stem from different studies. ECn is the concentration giving n% inhibition of infection, replication or growth. An empty or dashed field is not shown.

SMILES	strain or isolate	method	endpoint	cells	changes	result
C=C(C)[C@@H]1CC[C@]2(NC(=O)N3CCN(C)CC3)CC[C@]3(C)[C@H](CC[C@@H]4[C@@]5(C)CC[C@H](OC(=O)CC(C)(C)C(=O)O)C(C)(C)[C@@H]5CC[C@]43C)[C@@H]12	IIIB	RT activity	EC50	MT-2	-	>0.199 µM
Nc1cccc(S(=O)(=O)N(CC2CCCC2)C[C@@H](O)CN(CCc2ccccc2)C(=O)c2cccnc2)c1	IIIB	p24	EC50	CEM	-	<1 µM
CCC(O)[NH+]1CC[NH+](C(O)CC)CC1.[Cl][Pt-2]([Cl])([Cl])([Cl])([Cl])[Cl]	-	luciferase / β-galactosidase	EC50	Jurkat cells	-	>3 µM
COc1ccc(S(=O)(=O)N(CC[C@@H](O)CN(CC(C)C)S(=O)(=O)c2ccc(OC)cc2)CC(C)C)cc1	IIIB	p24	EC90	CEM	-	1 µM
CCCCC(=O)c1ccc2c(c1)sc(=O)n2CCN1CCCCC1	IIIB	syncytia	EC50	CEM	-	>8 µg/mL
CC1(C)Oc2ccc3ccc(=O)oc3c2[C@@H](OC(=O)C23CCC(C)(C(=O)O2)C3(C)C)[C@H]1OC(=O)C12CCC(C)(C(=O)O1)C2(C)C	IIIB	p24 / ELISA	EC50	U-937	-	0.0021 µM
Nc1ccc(S(=O)(=O)N(Cc2ccccc2)CC(F)(F)C(=O)[C@@H](Cc2ccccc2)NC(=O)O[C@H]2CCOC2)cc1	IIIB	p24	EC50	CEM	-	<1 µM
Nc1ncc(C(c2ccccc2)n2ccnc2)c(-c2ccccc2)n1	IIIB	cytopathic effect / MTT	EC50	MT-4	-	>134 µM
COC(=O)[C@H](Cc1ccccc1)NP(=O)(OC[C@H]1C=C[C@@H](n2ccc3c(N)ncnc32)C1)Oc1ccccc1	-	cytopathic effect / MTS	EC50	MT-4	-	0.3 µM
C=C(C)[C@@H]1CC[C@]2(NC(=O)C3CC3)CC[C@]3(C)[C@H](CC[C@@H]4[C@@]5(C)CC[C@H](OC(=O)CC(C)(C)C(=O)O)C(C)(C)[C@@H]5CC[C@]43C)[C@@H]12	IIIB	RT activity	EC50	MT-2	-	>0.199 µM
O=C(c1cccc(I)c1)c1ccc2[nH]c(=O)sc2c1	IIIB	syncytia	EC50	CEM	-	4.6 µg/mL
CC1(C)Oc2ccc3ccc(=O)oc3c2[C@H](OC(=O)C23CCC(C)(C(=O)O2)C3(C)C)[C@@H]1OC(=O)C12CCC(C)(C(=O)O1)C2(C)C	IIIB	p24 / ELISA	EC50	H9	-	51 µM
COc1ccc(OC)c(C2SCC(=O)N2c2ccccn2)c1	IIIB	MTT	EC50	MT-2	-	1.064 µM
COc1ccc(S(=O)(=O)N(CC(C)C)C[C@@H](O)CCN(CC2CCCC2)S(=O)(=O)Cc2csc(C(C)C)n2)cc1	IIIB	p24	EC50	CEM	-	<1 µM
Nc1ccn([C@H]2S[C@@H](CO)C=C2F)c(=O)n1	LAV	RT activity	EC50	PBMC	-	0.12 µM
CCOP(=O)(OCC)C(Cc1ccccn1)N[C@@H](Cc1ccccc1)[C@H](O)CN(CC(C)C)S(=O)(=O)c1ccc(OC)cc1	IIIB	MTT	EC50	MT-4	-	>13.93 µg/mL
Cc1cccnc1N1C(=O)CSC1c1c(C)cccc1C	IIIB	MTT	EC50	MT-2	-	≥182 µM
COc1ccccc1CCNC(=S)Nc1ccccn1	IIIB	p24	EC50	PBMC	-	0.01 µM
Cn1c(=O)c2c(ncn2CCOc2ccc3cc2Cc2cc(ccc2OCCn2cnc4c2c(=O)n(C)c(=O)n4C)N=Cc2cccc(c2)C=Nc2ccc(OCCn4cnc5c4c(=O)n(C)c(=O)n5C)c(c2)Cc2cc(ccc2OCCn2cnc4c2c(=O)n(C)c(=O)n4C)N=Cc2cccc(c2)C=N3)n(C)c1=O	RF	cytopathic effect / XTT	EC50	CEM + CEM-SS	-	>25 µg/mL
COC(=O)[C@H](Cc1ccccc1)NP(=O)(OC[C@@H]1C=C[C@H](n2ccc3c(N)ncnc32)C1)Oc1ccccc1	-	cytopathic effect / MTS	EC50	MT-4	-	29 µM
Nc1ccc(C2SCC(=O)N2c2ccc(Cl)cc2)cc1	IIIB	MTT	EC50	MT-2	-	≥154.6 µM
c1ccc(-c2ncc(C(c3ccccc3)n3ccnc3)c(-c3ccccc3)n2)cc1	IIIB	cytopathic effect / MTT	EC50	MT-4	-	>26 µM
CN(C(=O)[C@H](Cc1cc(F)cc(F)c1)NC(=O)NS(=O)(=O)N1CCc2cncnc21)c1ccc2scnc2c1	NL4-3	luciferase	EC50	MT-2	-	0.94 µM
O=C1Nc2ccc(Cl)cc2[C@@](C#CC2CC2)(C(F)(F)F)O1	-	MTT	EC50	MT-4	EFV-resistant (K103R V179D P225H)	12 µM
COc1ccc(S(=O)(=O)N(CC(C)C)C[C@@H](O)CCN(CCC2CCCC2)C(=O)O[C@H]2CCOC2)cc1	IIIB	p24	EC50	CEM	-	<1 µM
Nc1ccn([C@@H]2CS[C@H](CO)O2)c(=O)n1	NL4-3	p24 / ELISA	EC50	PBMC	-	0.026 µM
C[C@H](NP(=O)(OC[C@@H]1C=C[C@H](n2ccc3c(N)ncnc32)C1)Oc1ccccc1)C(=O)OCc1ccccc1	-	cytopathic effect / MTS	EC50	MT-4	-	>78 µM
O=C(c1cccc(Br)c1)c1ccc2[nH]c(=O)oc2c1	IIIB	syncytia	EC50	CEM	-	>8 µg/mL
Cc1ccc2cc(C#N)c(SCC(=O)Nc3nccs3)nc2c1	-	-	EC50	MAGI	-	>100 µM
O=S(=O)(c1cccc2cnccc12)N1CCNCC1	IIIB	cytopathic effect / MTT	EC50	MOLT-4	-	>8.4 µg/mL
CCCCCCCCCCCCCCCCCCOC[C@H](COP(=O)(O)C(=O)O)OCC	LAI	p24	EC50	MT-2	-	390 µM
C=C(C)[C@@H]1CC[C@]2(NC(=O)OC)CC[C@]3(C)[C@H](CC[C@@H]4[C@@]5(C)CC[C@H](OC(=O)CC(C)(C)C(=O)O)C(C)(C)[C@@H]5CC[C@]43C)[C@@H]12	IIIB	RT activity	EC50	MT-2	-	>0.199 µM
Cn1c2ccccc2c(=O)c2c(O)cccc21	IIIB	p24 / ELISA	EC50	MOLT-4/IIIB + MOLT-4	-	>2.1 µg/mL
CCCCC(=O)c1ccc2c(c1)sc(=O)n2CC=O	IIIB	syncytia	EC50	CEM	-	>8 µg/mL
O=C(c1ccccc1)N(CCc1ccccc1)C[C@H](O)CN(CC1CCCC1)S(=O)(=O)c1ccc2nc[nH]c2c1	IIIB	p24	EC90	CEM	-	1 µM
Cn1c(=O)c2c(ncn2CCOc2ccc([N+](=O)[O-])cc2Cc2cc([N+](=O)[O-])ccc2OCCn2cnc3c2c(=O)n(C)c(=O)n3C)n(C)c1=O	RF	cytopathic effect / XTT	EC50	CEM + CEM-SS	-	>25 µg/mL
OC[C@@H]1C=C[C@H](n2cnc3c(Cl)ncnc32)C1	IIIB	cytopathic effect / XTT	EC50	MT-2	-	>10 µg/mL
CN(C(=O)[C@H](Cc1cc(F)cc(F)c1)NC(=O)NS(=O)(=O)N1CCc2cccnc21)c1ccc(OC(F)(F)F)nc1	NL4-3	luciferase	EC50	MT-2	-	0.06 µM
CCn1c(=O)oc2cc(S(=O)(=O)NCC(O)COc3ccccc3)ccc21	-	-	EC50	MAGI	-	100 µM
Nc1ncnc2c1ccn2[C@H]1C=C[C@@H](CO)C1	-	cytopathic effect / MTS	EC50	MT-4	-	>200 µM
Nc1nc2c(ncn2C[C@H](CO)OCP(=O)(O)O)c(=O)[nH]1	LAV-Bru	cytopathic effect / XTT	EC50	CEM + CEM-SS	-	500 µM
COc1ccc2c(c1OC)c(=O)c1ccccc1n2C	IIIB	p24 / ELISA	EC50	OM-10.1	-	>28 µg/mL
CCCCOP(=O)(CN[C@@H](Cc1ccccc1)[C@H](O)CN(CC(C)C)S(=O)(=O)c1ccc(OC)cc1)OCCCC	IIIB	MTT	EC50	MT-4	-	>13.08 µg/mL
O=C1CSC(c2ccccn2)N1c1ccc(Cl)cn1	IIIB	MTT	EC50	MT-2	-	0.108 µM
CN(C)C(=O)[C@H]1CC=CN1S(=O)(=O)NC(=O)N[C@@H](Cc1cc(F)cc(F)c1)C(=O)N(C)c1ccc2scnc2c1	NL4-3	luciferase	EC50	MT-2	-	0.31 µM
COc1ccc(C(=O)Nc2sc3c(c2C(=O)Nc2ccccn2)CCCCC3)cc1OC	IIIB	MTT / absorbance	EC50	MT-4	-	>6.24 µM
Oc1ccc2cc1Cc1cc(ccc1O)N=Cc1cccc(n1)C=Nc1ccc(O)c(c1)Cc1cc(ccc1O)N=Cc1cccc(n1)C=N2	RF	cytopathic effect / XTT	EC50	CEM + CEM-SS	-	>25 µg/mL
c1ccc(-c2ccc(C(c3ccccc3)n3ccnc3)cc2)cc1	IIIB	cytopathic effect / MTT	EC50	MT-4	-	28 µM
Cc1cn([C@H]2C[C@H](N=[N+]=[N-])[C@@H](CO)O2)c(=O)[nH]c1=O	-	MTT	EC50	MT-4	AZT-resistant (67N 70R 215F 219Q)	0.3 µM
OC[C@@H]1C=C[C@H](n2cnc3c(=S)nc[nH]c32)C1	IIIB	cytopathic effect / XTT	EC50	MT-2	-	>10 µg/mL
CO.S=C([N-]c1ccc(Br)cn1)NCCc1ccccc1Cl.S=C([N-]c1ccc(Br)cn1)NCCc1ccccc1Cl.[O]=[V+2]	IIIB	p24	EC50	PBMC	-	0.08 µM
COc1cc(N)c2ncccc2c1Sc1ccc2ccccc2c1	-	luciferase / β-galactosidase	EC50	-	-	42 µM
C=C(C)[C@@H]1CC[C@]2(NC(=O)C(=O)N(C)C)CC[C@]3(C)[C@H](CC[C@@H]4[C@@]5(C)CC[C@H](OC(=O)CC(C)(C)C(=O)O)C(C)(C)[C@@H]5CC[C@]43C)[C@@H]12	IIIB	RT activity	EC50	MT-2	-	>0.199 µM
CN(C)c1ncc(C(c2ccccc2)n2cncn2)c(-c2ccccc2)n1	IIIB	cytopathic effect / MTT	EC50	MT-4	-	>97 µM
CN(C(=O)[C@H](Cc1cc(F)cc(F)c1)NC(=O)NS(=O)(=O)n1ccc2ccccc21)c1ccc2scnc2c1	NL4-3	luciferase	EC50	MT-2	-	0.05 µM
COc1ccc2c(c1)c(CC(=O)O)c(C)n2C(=O)c1ccc(Cl)cc1	IIIB	XTT / p24	EC50	MT-4	-	10 µM
O=C(c1ccc2[nH]c(=O)oc2c1)c1ccccc1F	IIIB	syncytia	EC50	CEM	-	>8 µg/mL

A second listing of 8 rows from above:

SMILES | strain or isolate | method | endpoint | cells | changes | result
Nc1ccc(C2SCC(=O)N2c2ccc(Cl)cc2)cc1 | IIIB | MTT | EC50 | MT-2 | - | ≥154.6 µM
COc1ccc(S(=O)(=O)N(CC(C)C)C[C@@H](O)CCN(CCC2CCCC2)C(=O)O[C@H]2CCOC2)cc1 | IIIB | p24 | EC50 | CEM | - | <1 µM
Cn1c2ccccc2c(=O)c2c(O)cccc21 | IIIB | p24 / ELISA | EC50 | MOLT-4/IIIB + MOLT-4 | - | >2.1 µg/mL
COc1ccc2c(c1OC)c(=O)c1ccccc1n2C | IIIB | p24 / ELISA | EC50 | OM-10.1 | - | >28 µg/mL
CO.S=C([N-]c1ccc(Br)cn1)NCCc1ccccc1Cl.S=C([N-]c1ccc(Br)cn1)NCCc1ccccc1Cl.[O]=[V+2] | IIIB | p24 | EC50 | PBMC | - | 0.08 µM
CCC(O)[NH+]1CC[NH+](C(O)CC)CC1.[Cl][Pt-2]([Cl])([Cl])([Cl])([Cl])[Cl] | - | luciferase / β-galactosidase | EC50 | Jurkat cells | - | >3 µM
Cc1cccnc1N1C(=O)CSC1c1c(C)cccc1C | IIIB | MTT | EC50 | MT-2 | - | ≥182 µM
COc1ccc(S(=O)(=O)N(CC(C)C)C[C@@H](O)CCN(CC2CCCC2)S(=O)(=O)Cc2csc(C(C)C)n2)cc1 | IIIB | p24 | EC50 | CEM | - | <1 µM